From article PMC9408872, “Harmicens, Novel Harmine and Ferrocene Hybrids: Design, Synthesis and Biological Activity” (International Journal of Molecular Sciences, 2022)

System: MCF-7 cells
Format: cell-based, human
Details: 28 at 10 µM, 36 at 5 µM, 30 min, intrinsic fluorescence, DAPI filter

Cc1nccc2c1[nH]c1cc(OCCNC(=O)C[c-]3cccc3)ccc12.[Fe+2].c1cc[cH-]c1 [Compound 36, N-(2-((1-Methyl-9H-pyrido[3,4-b]indol-7-yl)oxy)ethyl)-2-ferrocenylacetamide]
intracellular localization: the fluorescence of the nuclei was not as apparent
